A mixed list of measured activities; the numbers were collected in NIAID ChemDB.

All rows: tests on isolated targets; species: HIV-1; protein: Reverse transcriptase; endpoint: fold resistance

Fold resistance: result on the changed form divided by that on wild type. Rows are shuffled and stem from different studies. Blank or dashed fields: not listed here. Two numbers with a dash give a range or band.

{"smiles": "CCN1c2ncc(CCOc3ccc(NC(=O)C4CC4C(=O)O)cc3C)cc2C(=O)N(C)c2cccnc21", "strain": "IIIB", "changes": "RT-K103N Y181C", "read by": "nucleotide incorporation / radiometric", "result": ">2"}
{"smiles": "CCc1ccc(-n2c(Br)nnc2SCC(=O)Nc2ccc(C(=O)NCC3CCCCC3)cc2Cl)c2ccccc12", "changes": "RT-Y188L", "read by": "nucleotide incorporation / radiometric", "result": ">2"}
{"smiles": "CCN1c2ncc(CCOc3ccc(C(=O)O)c4c3CCN(C(C)=O)C4)cc2C(=O)N(C)c2cccnc21", "changes": "RT-Y188L", "read by": "nucleotide incorporation / radiometric", "result": ">10"}
{"smiles": "Cc1ccc(-n2c(SCC(=O)Nc3ccc(S(=O)(=O)NCCC(=O)O)cc3Cl)nnc2C(F)F)c2c1CCCC2", "changes": "RT-Y188L", "read by": "nucleotide incorporation / radiometric", "result": ">2"}
{"smiles": "CC(C)=CCN1Cc2cccc3[nH]c(=S)n(c23)C[C@@H]1C", "changes": "RT-Y181C", "read by": "nucleotide incorporation", "result": "8.74"}
{"smiles": "Cc1cc(S(N)(=O)=O)ccc1NC(=O)CSc1nnc(C)n1-c1ccc(C)c2c1CCCC2", "changes": "RT-Y181C", "read by": "nucleotide incorporation / radiometric", "result": ">2"}
{"smiles": "CCN1c2ncc(CCOc3ccc(CC(C)C(=O)O)c4ccccc34)cc2C(=O)N(C)c2ccc(C)nc21", "changes": "RT-Y188L", "read by": "nucleotide incorporation / radiometric", "result": ">10"}
{"smiles": "Cc1cc(S(N)(=O)=O)ccc1NC(=O)COc1ccccc1C(=O)c1cc(Cl)cc(C#N)c1", "strain": "NNRTI-resistant", "changes": "RT-Y188L", "read by": "fluorescence", "result": "3.1"}
{"smiles": "CCN1c2ncc(CCOc3ccc(CC(=O)O)c4ccccc34)cc2C(=O)N(C)c2ccc(Cl)nc21", "changes": "RT-K103N Y181C", "read by": "nucleotide incorporation / radiometric", "result": "1–10"}
{"smiles": "CC(C)=CCOc1cc(NC(=S)c2ccoc2C)ccc1Cl", "changes": "RT-V106A", "result": "1"}
{"smiles": "CC(C)[C@H](NC(=O)c1ccc(NC(=O)CSc2nnc(Br)n2-c2ccc(C3CC3)c3ccccc23)c(Cl)c1)C(=O)O", "changes": "RT-Y181C", "read by": "nucleotide incorporation / radiometric", "result": "<1"}
{"smiles": "CCN1c2ncc(CCOc3ccc(C(=O)Nc4ccccc4C(=O)O)cc3C)cc2C(=O)N(C)c2cccnc21", "strain": "IIIB", "changes": "RT-K103N Y181C", "read by": "nucleotide incorporation / radiometric", "result": ">2"}
{"smiles": "CCN1c2ncc(CCOc3ccc(C(=O)O)c4c3CCN(C(=O)OC)C4)cc2C(=O)N(C)c2cccnc21", "changes": "RT-K103N Y181C", "read by": "nucleotide incorporation / radiometric", "result": "1–10"}
{"smiles": "CCN1c2ncc(CCOc3ccc(-c4cc(C)ccn4)cc3C)cc2C(=O)N(C)c2cccnc21", "strain": "IIIB", "changes": "RT-K103N Y181C", "read by": "nucleotide incorporation / radiometric", "result": "1"}
{"smiles": "CCOC(=O)CN(C)C(=O)c1ccc(NC(=O)CSc2nnc(Br)n2-c2ccc(C3CC3)c3ccccc23)c(Cl)c1", "changes": "RT-Y181C", "read by": "nucleotide incorporation / radiometric", "result": "<1"}
{"smiles": "CCN1c2ncc(CCOc3ccc(-c4cc(C)[n+]([O-])c(C)c4)cc3C)cc2C(=O)N(C)c2cccnc21", "strain": "IIIB", "changes": "RT-K103N Y181C", "read by": "nucleotide incorporation / radiometric", "result": "1"}
{"smiles": "CC(C)C[C@H](NC(=O)c1ccc(NC(=O)CSc2nnc(Br)n2-c2ccc(C3CC3)c3ccccc23)c(Cl)c1)C(=O)O", "changes": "RT-Y188L", "read by": "nucleotide incorporation / radiometric", "result": ">1"}
{"smiles": "CCN1c2ncc(CCOc3ccc(C(=O)N4CCC(C(=O)O)CC4)cc3C)cc2C(=O)N(C)c2cccnc21", "strain": "IIIB", "changes": "RT-K103N Y181C", "read by": "nucleotide incorporation / radiometric", "result": ">1"}
{"smiles": "CCN1c2ncc(CCOc3ccc(CCC(=O)O)c4ccccc34)cc2C(=O)N(C)c2ccc(Cl)nc21", "changes": "RT-V106A", "read by": "nucleotide incorporation / radiometric", "result": "1–10"}
{"smiles": "CC(C)=CCOc1cc(NC(=S)c2ccsc2C)ccc1Cl", "changes": "RT-P236L", "result": "1.5"}
{"smiles": "O=C(CSc1nnc(Br)n1-c1ccc(C2CC2)c2ccccc12)Nc1ccc(C(=O)O)cc1Cl", "changes": "RT-Y188L", "read by": "nucleotide incorporation / radiometric", "result": ">2"}
{"smiles": "CCN1c2ncc(CCOc3ccc(-c4ccc(C(=O)O)cn4)cc3C)cc2C(=O)N(C)c2cccnc21", "strain": "IIIB", "changes": "RT-K103N Y181C", "read by": "nucleotide incorporation / radiometric", "result": "1"}
{"smiles": "CCN1c2ncc(CCOc3ccc4cc(C(=O)NC(C)(C)C(=O)O)ccc4c3)cc2C(=O)N(C)c2cccnc21", "changes": "RT-Y188L", "read by": "nucleotide incorporation / radiometric", "result": ">10"}
{"smiles": "CCOC(=O)[C@H](Cc1ccc(O)cc1)NC(=O)c1ccc(NC(=O)CSc2nnc(Br)n2-c2ccc(C3CC3)c3ccccc23)c(Cl)c1", "changes": "RT-Y181C", "read by": "nucleotide incorporation / radiometric", "result": "<1"}
{"smiles": "C=C1c2cc(CCOc3ccc(NS(C)(=O)=O)c4ccccc34)cnc2N(CC)c2ncccc2N1C", "changes": "RT-K103N Y181C", "read by": "nucleotide incorporation / radiometric", "result": "1–10"}
{"smiles": "CCc1cc(CCc2nc3ccccc3o2)c(=O)[nH]c1C", "changes": "RT-Y181I", "read by": "nucleotide incorporation", "result": ">7600"}
{"smiles": "CCN1c2ncc(CCOc3ccc(NS(=O)(=O)C(F)(F)F)c4ccccc34)cc2C(=O)N(C)c2ccc(F)nc21", "changes": "RT-V106A", "read by": "nucleotide incorporation / radiometric", "result": ">10"}
{"smiles": "O=C(CSc1nnc(Br)n1-c1ccc(C2CC2)cc1C(F)(F)F)Nc1ccc(C(=O)O)cc1Cl", "changes": "RT-Y181C", "read by": "nucleotide incorporation / radiometric", "result": ">1"}
{"smiles": "CCN1c2ncc(CCOc3ccc4cc(CC(=O)NN)ccc4c3)cc2C(=O)N(C)c2cccnc21", "changes": "RT-V106A", "read by": "nucleotide incorporation / radiometric", "result": "1"}
{"smiles": "CC(C)c1ccc(-n2c(SCC(=O)Nc3ccc(S(N)(=O)=O)cc3Cl)nnc2C(F)F)c2ccccc12", "changes": "RT-Y188L", "read by": "nucleotide incorporation / radiometric", "result": ">2"}
{"smiles": "CCN1c2ncc(CCOc3ccc(C(=O)Nc4nc(CC(=O)O)cs4)cc3C)cc2C(=O)N(C)c2cccnc21", "strain": "IIIB", "changes": "RT-K103N Y181C", "read by": "nucleotide incorporation / radiometric", "result": "1"}

The last 2 rows once more:

smiles | strain | changes | read by | result
CC(C)c1ccc(-n2c(SCC(=O)Nc3ccc(S(N)(=O)=O)cc3Cl)nnc2C(F)F)c2ccccc12 |  | RT-Y188L | nucleotide incorporation / radiometric | >2
CCN1c2ncc(CCOc3ccc(C(=O)Nc4nc(CC(=O)O)cs4)cc3C)cc2C(=O)N(C)c2cccnc21 | IIIB | RT-K103N Y181C | nucleotide incorporation / radiometric | 1